Experimental data published in patent US20120329731A1 (priority 2006, published 2012).
Where two headings read alike, the source gives them in different places.

System: cyanide poisoning
Conditions: for Protective Indices compared with the combination of nitrite and thiosulfate: i.p., 5 min pre- and post-cyanide, compounds 0.29 mmol/kg vs N/T 1.45/6.32 mmol/kg; for antidotal activity when administered by the oral route: oral gavage, 5 minutes pre- and post-CN, mouse
[1] = i.p. 5 min post-CN (4.8 mg/kg), prodrugs 0.29 mmol/kg, N/T 1.45/6.32 mmol/kg, H 0.217 mmol/kg
[2] = i.p. 5 min pre-CN (4.8 mg/kg i.p.), prodrugs 0.29 mmol/kg, N/T 1.45/6.32 mmol/kg, H 0.217 mmol/kg
[3] = i.p. 5 min pre-CN (4.8 mg/kg), prodrugs 0.29 mmol/kg, N/T 1.45/6.32 mmol/kg, H 0.217 mmol/kg
[4] = i.p. 30 min pre-CN (4.8 mg/kg), prodrugs 1, 3, 4 at 0.58 mmol/kg, PD 2 0.29 mmol/kg, N/T 1.45/6.32 mmol/kg, H 0.217 mmol/kg
[5] = oral gavage 5 min post-CN (4.8 mg/kg), prodrugs 0.29 mmol/kg
[6] = oral gavage 5 min pre-CN (4.8 mg/kg), prodrugs 0.29 mmol/kg
[7] = oral gavage 30 min pre-CN (4.8 mg/kg), 1.45 mmol/kg (Table 7)
[8] = oral gavage 60 min pre-CN (4.8 mg/kg), 1.45 mmol/kg

In the case of “2-Carbethoxy-2-mercaptomethyl-L-thiazolidine-4-carboxylic acid”, the “% S (percent survivors)” value [1] is reported as 100%, the “P.I. (protective index)” value [1] is reported as 1.4 and the “Screen Righting Time (Ave ± SE)” value [1] is reported as 42.8 ± 4.0 min. The “Screen Righting Time (Ave ± SE)” value [2] was 42.5 ± 3.4 min, the “% S (percent survivors)” value [3] was 100% and the “P.I. (protective index: recovery time CN-treated / recovery time PD-treated)” value [3] was 1.6. For the same substance, the “% S (percent survivors)” value [4] was 100%, the “P.I. (protective index)” value [4] was 1.3 and the “Screen Righting Time (Ave ± SE)” value [4] was 54.0 ± 5.2 min. For the same substance, the “Protective Indices compared with the combination of nitrite and thiosulfate” value was “generally superior”, the “% S (percent survivors)” value [5] was 100% and the “P.I. (protective index)” value [5] was 1.6. The “Screen Righting Time (Ave ± SE)” value [5] was 37.5 ± 3.8 min, the “% S (percent survivors)” value [6] was 100% and the “P.I. (protective index)” value [6] was 2.2. For the same substance, the “Screen Righting Time (Ave ± SE)” value [6] was 29.1 ± 4.4 min, the “% S (percent survivors)” value [7] was 100% and the “P.I. (protective index)” value [7] was 2.1. For the same substance, the “Screen Righting Time (Ave ± SE)” value [7] was 33.5 ± 1.3 min, the “% S (percent survivors)” value [8] was 100% and the “P.I. (protective index)” value [8] was 2.0. The “Screen Righting Time (Ave ± SE)” value [8] was 35.3 ± 1.6 min and the “antidotal activity when administered by the oral route” value (from here on “antidotal activity when administered”) was “retain their antidotal activity”.
For “(E)-O,S-Diacetyl-2-hydroxyl-3-mercapto-2-propenoic acid”, the “% S (percent survivors)” value [1] was 100%, the “P.I. (protective index)” value [1] was 1.7 and the “Screen Righting Time (Ave ± SE)” value [1] was 36.9 ± 4.1 min. The “Screen Righting Time (Ave ± SE)” value [2] was 8.7 ± 1.2 min, the “% S (percent survivors)” value [3] was 100% and the “P.I. (protective index: recovery time CN-treated / recovery time PD-treated)” value [3] was 7.6. The “% S (percent survivors)” value [4] was 100%, the “P.I. (protective index)” value [4] was 1.9 and the “Screen Righting Time (Ave ± SE)” value [4] was 36.0 ± 1.6 min. The “Protective Indices compared with the combination of nitrite and thiosulfate” value was “generally superior”, the “% S (percent survivors)” value [5] was 100% and the “P.I. (protective index)” value [5] was 1.6. The “Screen Righting Time (Ave ± SE)” value [5] was 39.0 ± 7.4 min, the “% S (percent survivors)” value [6] was 100% and the “P.I. (protective index)” value [6] was 3.2. The “Screen Righting Time (Ave ± SE)” value [6] was 20.4 ± 2.8 min, the “% S (percent survivors)” value [7] was 100% and the “P.I. (protective index)” value [7] was 2.8. For the same substance, the “Screen Righting Time (Ave ± SE)” value [7] was 24.6 ± 3.9 min and the “antidotal activity when administered” value was “retain their antidotal activity”.
In the case of “Ethyl-(E)-O,S-Diacetyl-2-hydroxyl-3-mercapto-2-propenate”, the “% S (percent survivors)” value [1] is reported as 100%, the “P.I. (protective index)” value [1] is reported as 2.3 and the “Screen Righting Time (Ave ± SE)” value [1] is reported as 27.0 ± 3.6 min. For the same substance, the “Screen Righting Time (Ave ± SE)” value [2] was 10.3 ± 1.3 min, the “% S (percent survivors)” value [3] was 100% and the “P.I. (protective index: recovery time CN-treated / recovery time PD-treated)” value [3] was 6.4. The “% S (percent survivors)” value [4] was 100%, the “P.I. (protective index)” value [4] was 2.1 and the “Screen Righting Time (Ave ± SE)” value [4] was 33.3 ± 2.7 min. The “Protective Indices compared with the combination of nitrite and thiosulfate” value was “generally superior”, the “% S (percent survivors)” value [5] was 100% and the “P.I. (protective index)” value [5] was 3.4. For the same substance, the “Screen Righting Time (Ave ± SE)” value [5] was 17.8 ± 4.1 min, the “% S (percent survivors)” value [6] was 100% and the “P.I. (protective index)” value [6] was 2.1. For the same substance, the “Screen Righting Time (Ave ± SE)” value [6] was 30.4 ± 4.2 min, the “% S (percent survivors)” value [7] was 100% and the “P.I. (protective index)” value [7] was 5.4. For the same substance, the “Screen Righting Time (Ave ± SE)” value [7] was 13.0 ± 4.1 min, the “% S (percent survivors)” value [8] was 100% and the “P.I. (protective index)” value [8] was 2.1. For the same substance, the “Screen Righting Time (Ave ± SE)” value [8] was 33.9 ± 2.2 min and the “antidotal activity when administered” value was “retain their antidotal activity”.
